Measured values from several laboratories, pooled; numbers as filed in NIAID ChemDB.

Common to all: tests in culture; agent: HIV-1; cell line: MT-2; read-out: EC50

ECn is the concentration giving n% inhibition of infection, replication or growth. a–b is a range or a potency band. Blank or dashed fields: not listed here. Rows are shuffled and stem from different studies.

smiles	strain or isolate	changes	method	conditions	value
Cc1cn([C@H]2C=C[C@@H](CO)O2)c(=O)[nH]c1=O	Clinical isolate	T69ins/K70R/M184V/K219Q	recombinant virus assay	-	3.408 µM
Cc1ccc(S(=O)(=O)N(CC(C)C)C[C@@H](O)[C@H](Cc2ccccc2)NC(=O)O[C@H]2CO[C@H]3OCC[C@H]32)cc1	IIIB	I401T	p24 / ELISA	-	0.008 µM
CC(C)(C)NC(=O)[C@@H]1C[C@@H]2CCCC[C@@H]2N1C(=O)[C@@H](O)[C@H](Cc1ccccc1)NC(=O)[C@H](CC(N)=O)NC(=O)COc1cccc2ccccc12	RF	-	p24	-	0.005–0.038 µM
COc1cc(C[C@@H]2[C@H](O)[C@@H](O)[C@@H](Cc3cc(OC)cc(OC)c3)N(Cc3cccc(C(C)=O)c3)C(=O)N2Cc2cccc(C(C)=O)c2)cc(OC)c1	RF	-	-	-	<0.0464 µM
Cc1ccnc2c1NC(=O)c1cccnc1N2C1CC1	MN	-	p24	-	0.04 µM
CC(C)NC(=O)[C@@H]1C[C@@H]2CCCC[C@@H]2N1C(=O)[C@@H](O)[C@H](Cc1ccccc1)NC(=O)[C@@H](NC(=O)COc1cccc2ccccc12)C(C)C	RF	-	p24	-	0.006–0.11 µM
O=C(NC(=S)Nc1ccc(Br)cn1)c1ccccc1[N+](=O)[O-]	ROD	-	MTT	-	>10 µM
Cc1ncc(COP(=O)(O)O)c(C=O)c1O	IIIB	-	p24	-	>100 µg/mL
CN1CCOc2ccc(C[C@@H]3[C@H](O)[C@@H](O)[C@@H](Cc4ccc5c(c4)N(C)CCO5)N(Cc4ccccc4)C(=O)N3Cc3ccccc3)cc21	RF	-	-	-	<0.218 µM
Nc1nc2c(ncn2[C@H]2CO[C@@H](CO)O2)c(=O)[nH]1	-	RT-M184V	-	-	0.75 µM
COC(=O)N[C@H](C(=O)N[C@@H](Cc1ccccc1)[C@@H](O)CN(Cc1ccc(-c2ccccn2)cc1)NC(=O)[C@@H](NC(=O)OC)C(C)(C)C)C(C)(C)C	NL4-3	-	-	-	0.00075 µM
Nc1nc(=O)n([C@@H]2CS[C@H](CO)O2)cc1F	LAI (RT-Q151M) Recombinant	-	cytopathic effect / XTT	-	1.4 µM
Cc1cn([C@H]2C=C[C@@H](CO)O2)c(=O)[nH]c1=O	-	RT-K103N	p24	-	0.19 µM
CO[C@H]1O[C@@H](n2ccc(=O)[nH]c2=O)C[C@@H]1N=[N+]=[N-]	HX(RT-S156A)	RT-S156A	RT activity	-	0.76 µM
CC(C)(C)NC(=O)[C@@H]1C[C@@H]2CCCC[C@@H]2N1C(=O)[C@@H](O)[C@H](Cc1ccccc1)NC(=O)[C@H](CC(N)=O)NC(=O)c1ccc2ccccc2n1	RF	-	p24	-	0.007–0.026 µM
Cc1cn([C@H]2C[C@H](N=[N+]=[N-])[C@@H](CO)O2)c(=O)[nH]c1=O	LAI	-	cytopathic effect / XTT	-	0.35 µM
CC(=O)c1cc(CN2C(=O)N(Cc3ccc(F)c(C(C)=O)c3)[C@H](Cc3ccc4c(c3)OCCO4)[C@H](O)[C@@H](O)[C@H]2Cc2ccc3c(c2)OCCO3)ccc1F	RF	-	-	-	<0.084 µM
Nc1nc2c(ncn2[C@H]2CO[C@@H](CO)O2)c(=O)[nH]1	-	RT-L74V	cytopathic effect / XTT	-	7.5 µM
CO[P@](=O)(c1cc(C)cc(/C=C/C#N)c1)c1c(C(N)=O)[nH]c2ccc(Cl)c(F)c12	Clinical isolate	K103N/Y181C	-	-	0.002 µM
CC(C)=CCOc1c2occc2cc2ccc(=O)oc12	NL4-3 Recombinant VSV-pseudotyped	-	luciferase	-	<25 µM
CCOP(=O)(COc1ccc(C[C@H](NC(=O)O[C@H]2CO[C@H]3OCC[C@H]32)[C@H](O)CN(CC(C)C)S(=O)(=O)c2ccc(OC)cc2)cc1)OCC	IIIB	I401T	p24 / ELISA	-	0.008 µM
Nc1nc(N)c2ncn([C@H]3CO[C@@H](CO)O3)c2n1	-	RT-K65R	cytopathic effect / XTT	-	120 µM
CC(C)(C)NC(=O)[C@@H]1CCCN1C(=O)[C@@H](O)[C@H](Cc1ccccc1)NC(=O)[C@H](CC(N)=O)NC(=O)COc1cccc2ccccc12	RF	-	p24	-	0.09–0.103 µM
Nc1ccn([C@H]2CC[C@@H](CO)O2)c(=O)n1	NL4-3 WT	-	cytopathic effect / XTT / RT activity	5 d	3.2 µM
C[C@H]1CN2CCC[C@H]3CCCCC[C@@H]4C(=O)[C@@H](C)CN5CCC[C@@H](CCCCC[C@H](C1=O)[C@@H]32)[C@H]45	MN	-	syncytia	-	21.2 µM
Nc1cccc(CN2C(=O)N(Cc3cccc(N)c3)[C@H](Cc3ccc4c(c3)OCCO4)[C@H](O)[C@@H](O)[C@H]2Cc2ccc3c(c2)OCCO3)c1	RF	-	-	-	<0.04 µM
O=c1[nH]cnc2c1ncn2[C@H]1CC[C@@H](CO)O1	IIIB	-	cytopathic effect / XTT / RT activity	5 d	6.5 µM
CC(=O)c1cccc(CN2C(=O)N(Cc3cccc(C(C)=O)c3)[C@H](Cc3ccc4c(c3)N(C)CCO4)[C@H](O)[C@@H](O)[C@H]2Cc2ccc3c(c2)N(C)CCO3)c1	RF	-	-	-	<0.0164 µM
Nc1nc(=O)n([C@@H]2CS[C@H](CO)O2)cc1F	Clinical isolate	A62V/V75I/F77L/F116L/Q151M/M184V	recombinant virus assay	-	>13.3 µM
CCN(c1nc(F)ccc1NC(C)(C)C)C1CCN(C(=O)c2cc3cc(NC(=O)N4CCN(C)CC4)ccc3[nH]2)CC1	IIIB	K112M K113E V128I M200I H219P	p24 / ELISA	-	0.0261 µM
Nc1nc2c(ncn2[C@H]2C=C[C@@H](CO)C2)c(=O)[nH]1	J4A ddC-resistant	-	cytopathic effect / XTT / RT activity	5 d	1.2 µM
O=c1ccc2cc3ccoc3cc2o1	NL4-3 Recombinant VSV-pseudotyped	-	luciferase	-	>50 µM
CC(=O)c1cc(CN2C(=O)N(Cc3ccc(F)c(C(C)=O)c3)[C@H](Cc3ccc4c(c3)OCO4)[C@H](O)[C@@H](O)[C@H]2Cc2ccc3c(c2)OCO3)ccc1F	RF	-	-	-	<0.265 µM
CC(C)=CCOc1cc(Nc2nccc3cc[nH]c23)ccc1Cl	IIIB	-	cytopathic effect / MTT	-	0.09 µM
Cc1cn([C@H]2C[C@H](N=[N+]=[N-])[C@@H](CO)O2)c(=O)[nH]c1=O	IIIB	-	RT activity	-	0.001 µM
CC(C)(C)NC(=O)[C@@H]1C[C@@H]2CCCC[C@@H]2N1C(=O)[C@@H](O)[C@H](Cc1ccc(O)cc1)NC(=O)[C@H](CC(N)=O)NC(=O)COc1cccc2ccccc12	RF	-	p24	-	0.36 µM
Nc1cccc(CN2C(=O)N(Cc3cccc(N)c3)[C@H](Cc3ccccc3)[C@H](O)[C@@H](O)[C@H]2Cc2ccccc2)c1	RF	-	-	-	<0.15 µM
O=c1[nH]cnc2c1ncn2[C@H]1CC[C@@H](CO)O1	RT Δ.67 T69G K103N	1 (Δ.67+T69G+K103N)	p24	-	0.467 µM
Cc1ccnc2c1NC(=O)c1cccnc1N2C1CC1	PDBC	-	RT activity	-	0.15 µM

5 of the rows above, restated:

smiles	strain or isolate	changes	method	conditions	value
Cc1ncc(COP(=O)(O)O)c(C=O)c1O	IIIB	-	p24	-	>100 µg/mL
CC(C)=CCOc1c2occc2cc2ccc(=O)oc12	NL4-3 Recombinant VSV-pseudotyped	-	luciferase	-	<25 µM
C[C@H]1CN2CCC[C@H]3CCCCC[C@@H]4C(=O)[C@@H](C)CN5CCC[C@@H](CCCCC[C@H](C1=O)[C@@H]32)[C@H]45	MN	-	syncytia	-	21.2 µM
Cc1cn([C@H]2C=C[C@@H](CO)O2)c(=O)[nH]c1=O	Clinical isolate	T69ins/K70R/M184V/K219Q	recombinant virus assay	-	3.408 µM
Nc1nc(=O)n([C@@H]2CS[C@H](CO)O2)cc1F	Clinical isolate	A62V/V75I/F77L/F116L/Q151M/M184V	recombinant virus assay	-	>13.3 µM